A mixed list of measured activities; the numbers were collected in NIAID ChemDB.

All rows: target-level tests; species: HIV-1; target: Protease

ICn is the concentration giving n% inhibition. Percent inhibition refers to the dose given; in toxicity tests it is the harm to the cells. Conditions beyond the fields shown may differ between rows. An empty or dashed field is not shown. Fold resistance: result on the changed form divided by that on wild type.

SMILES | tested at | measure | read by | mutations | value
CC(C)[C@H](NC(=O)c1cccnc1)C(=O)NC(Cc1ccccc1)C(O)C(O)C(Cc1ccccc1)NC(=O)[C@@H](NC(=O)c1cccnc1)C(C)C | 0.005 µM | inhibition | fluorescence | - | 58%
Cc1cc(SC2=C(O)CC(CCc3ccc(O)cc3)(C3CCCCC3)OC2=O)c(C(C)(C)C)cc1CO | - | fold resistance | HPLC / absorbance | PR-V32I I84V | 40
O=S1(=O)N(Cc2cccc(I)c2)[C@H](COc2ccccc2)[C@H](O)[C@@H](O)[C@@H](COc2ccccc2)N1Cc1cccc(I)c1 | - | fold resistance | - | PR-I84V | 1420
CC(C)[C@H](NC(=O)OCc1ccccc1)C(=O)N[C@@H](Cc1ccccc1)[C@H](O)[C@H](O)[C@H](Cc1ccccc1)NC(=O)[C@@H](NC(=O)OCc1ccccc1)C(C)C | - | IC50 | fluorescence | - | <0.001 µM
C/C(=N\O)c1cccc(CN2[C@H](COc3ccccc3)[C@H](O)[C@@H](O)[C@@H](COc3ccccc3)N(Cc3cccc(/C(C)=N/O)c3)S2(=O)=O)c1 | - | fold resistance | - | PR-V82A | 11.5
CC(C)[C@H](NC(=O)OCc1ccccc1)C(=O)NC(Cc1ccccc1)C(O)C(F)(F)C(Cc1ccccc1)NC(=O)[C@@H](NC(=O)OCc1ccccc1)C(C)C | 0.001 µM | inhibition | fluorescence | - | 53%
Cc1cc(SC2=C(O)C[C@@](CCc3ccc(N)cc3)(C(C)C)OC2=O)c(C(C)(C)C)cc1CO | - | fold resistance | HPLC / absorbance | PR-D30N | 1.2
CN1[C@H](COc2ccccc2)[C@H](O)[C@@H](O)[C@@H](COc2ccccc2)N(C)S1(=O)=O | - | fold resistance | - | PR-V82A | 4.23
CC(C)[C@H](NC(=O)N(C)Cc1ccccn1)C(=O)N[C@@H](Cc1ccccc1)[C@H](O)[C@H](O)[C@H](Cc1ccccc1)NC(=O)[C@@H](NC(=O)N(C)Cc1ccccn1)C(C)C | - | fold resistance | HPLC | PR-V82A | 5
Cc1cc(SC2=C(O)C[C@@](CCc3ccc(O)cc3)(C(C)C)OC2=O)c(C(C)(C)C)cc1CO | - | fold resistance | HPLC / absorbance | PR-V32I I84V | 6.9
CC(C)[C@H](NS(=O)(=O)N(C)Cc1ccccn1)C(=O)N[C@@H](Cc1ccccc1)[C@H](O)[C@@H](O)[C@H](Cc1ccccc1)NC(=O)[C@@H](NS(=O)(=O)N(C)Cc1ccccn1)C(C)C | 0.05 µM | inhibition | fluorescence | - | 56%
CC(C)(C)OC(=O)N[C@@H](Cc1ccccc1)[C@@H](O)C[C@@H](Cc1ccc(OCCN2CCOCC2)cc1)C(=O)N[C@H]1c2ccccc2C[C@H]1O | - | fold resistance | fluorescence | PR-M46I | 1.06
CC(C)[C@H](NC(=O)OCc1ccccc1)C(=O)N[C@@H](Cc1ccccc1)[C@H](O)[C@H](Cc1ccccc1)NC(=O)[C@@H](NC(=O)OCc1ccncc1)C(C)C | - | IC50 | fluorescence | - | ~0.005 µM
CC(C)[C@H](NC(=O)N(C)Cc1ccccn1)C(=O)N[C@@H](Cc1ccccc1)[C@H](O)[C@@H](O)[C@H](Cc1ccccc1)NC(=O)[C@@H](NC(=O)N(C)Cc1ccccn1)C(C)C | - | fold resistance | fluorescence | PR-R8Q | 93.5
O=S1(=O)N(Cc2ccc(-c3cccs3)cc2)[C@H](COc2ccccc2)[C@H](O)[C@@H](O)[C@@H](COc2ccccc2)N1Cc1ccc(-c2cccs2)cc1 | - | fold resistance | - | PR-I84V | 30.4
CC(C)[C@H](NC(=O)OCc1ccccn1)C(=O)N[C@@H](Cc1ccccc1)[C@H](O)[C@H](O)[C@H](Cc1ccccc1)NC(=O)OC(C)(C)C | - | IC50 | fluorescence | - | <0.005 µM
CNC(=O)c1cccc(CN2[C@H](COc3ccccc3)[C@H](O)[C@@H](O)[C@@H](COc3ccccc3)N(Cc3cccc(C(=O)NC)c3)S2(=O)=O)c1 | - | fold resistance | - | PR-V82A | 10
CC(C)(C)OC(=O)N[C@@H](Cc1ccccc1)[C@H](O)CNC[C@@H](O)[C@H](Cc1ccc(OCC(=O)N2CCOCC2)cc1)NC(=O)OC(C)(C)C | - | fold resistance | HPLC | PR-A71T V82A | 33.5

For reference, 2 entries again:

SMILES | tested at | measure | read by | mutations | value
CN1[C@H](COc2ccccc2)[C@H](O)[C@@H](O)[C@@H](COc2ccccc2)N(C)S1(=O)=O | - | fold resistance | - | PR-V82A | 4.23
C/C(=N\O)c1cccc(CN2[C@H](COc3ccccc3)[C@H](O)[C@@H](O)[C@@H](COc3ccccc3)N(Cc3cccc(/C(C)=N/O)c3)S2(=O)=O)c1 | - | fold resistance | - | PR-V82A | 11.5